# Target: GRPR (Mus musculus, UniProt P21729)
# Protein sequences, listed by entry. Tags and fused reporters are not part of them. Lines headed by an entry give the natural chain unless they say otherwise; changes in a name come on top.
# UniProt P21729: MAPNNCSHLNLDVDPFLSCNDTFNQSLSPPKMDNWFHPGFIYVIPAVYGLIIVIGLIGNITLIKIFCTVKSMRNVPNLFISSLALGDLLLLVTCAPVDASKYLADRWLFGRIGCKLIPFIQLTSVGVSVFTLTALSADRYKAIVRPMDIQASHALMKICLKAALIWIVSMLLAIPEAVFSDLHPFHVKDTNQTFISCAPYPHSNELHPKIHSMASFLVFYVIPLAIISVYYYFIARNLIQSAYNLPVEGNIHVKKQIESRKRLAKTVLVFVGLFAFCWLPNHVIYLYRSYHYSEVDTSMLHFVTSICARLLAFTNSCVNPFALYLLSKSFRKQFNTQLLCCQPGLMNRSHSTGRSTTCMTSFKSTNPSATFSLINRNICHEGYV
# Assay type: cell-based
substance,measurement,value
gastrin-releasing peptide [GRP],effect of GRP on frequency of sIPSCs in the presence of TTX,TTX-sensitive

# From patent US20080051315A1, “Grp Receptor-Related Methods for the Treating and Preventing Fear-Related Disorders” (priority 2003, published 2008)
